Laboratory results from paper PMC7034072, “Discovery of small molecule inhibitors of Leishmania braziliensis Hsp90 chaperone” (Journal of Enzyme Inhibition and Medicinal Chemistry, 2020).

test system: promastigote forms of L. braziliensis; experiment: In vitro IC50 determination (leishmanicidal activity, MTT/PMS); format: cell-based; conditions: ratio of IC50 against mammalian cells and IC50 against promastigote cells
Method: Amphotericin 100 μM/well and 0.5% DMSO were used as positive and negative control, respectively. The plates were incubated at RT for 72 h. After this, the viability of the promastigotes was verified by MTT/PMS colorimetric assay, as described above. In vitro leishmanicidal activity, expressed as IC50, was determined using GraphPad Prism 5 software according to the following equation: (2) y= Amin + Amax−Amin/1+10^logIC50 −x*Hillslope where Amin and Amax are, respectively, the minimum and maximum activities obtained, x is the ligand concentration and Hill Slope is the parameter that describes the steepness of the curve.
The selectivity index parameter was obtained by the ratio of compound IC50 against mammalian cells and compound IC50 against promastigote cells.

SMILES	Selectivity index
N=C(N)Nc1nc(-c2ccccc2)c2ccccc2n1 [Glb08]	1.7
N=C(N)NCc1cn(-c2ccccc2)nc1-c1ccccc1 [Glb14]	>6.7
N=C(N)NN=Cc1cnn(Cc2ccccc2)c1 [Glb15]	>2.8
N=C(N)NCc1ccc(Oc2ccc(F)cc2)cc1 [Glb16]	1.9
Cc1cccc(Oc2ccccc2CNC(=N)N)c1 [Glb17]	14.5
N=C(N)SCc1nc2ccccc2c(=O)n1-c1ccccc1 [Glb23]	<0.5
Cc1cc(CSC(=N)N)c2oc(-c3ccccc3)cc(=O)c2c1 [Glb25]	<0.05
N=C(N)NN=Cc1ccc2cccc(OCc3ccccc3)c2n1 [Glb27]	1.2
